System: gp120
Settings: intra-footpad with gp120

## QS21
  cytotoxic T-lymphocyte (CTL) activity in spleen cells: indicates CTL activity

Source: US6846489B1, “Vaccines containing a saponin and a sterol” (priority 1995, dated 2005)
